System: P. aeruginosa 18A biofilms
Details: 100 μM, 10 min, biofilms grown for 24 h

CCN(CC)/[N+]([O-])=N/OCC1=C(C(=O)O)N2C(=O)C(NC(=O)Cc3ccccc3)C2SC1 (stereo not shown) [Compound 21]
dispersal (CV staining): 35%
